According to publication PMC11684019, “Unveiling the Antimycobacterial Potential of Novel 4-Alkoxyquinolines: Insights into Selectivity, Mechanism of Action, and In Vivo Exposure” (Journal of Medicinal Chemistry, 2024):

System: M. tuberculosis qcrB-T313A mutant strain
Format: cell-based, Mycobacterium tuberculosis

CCc1ccc(NCCCOc2cc(C)nc3ccc(Br)cc23)cc1 [8t, N-(3-((6-bromo-2-methylquinolin-4-yl)oxy)propyl)-4-ethylaniline]
MIC against qcrB-T313A resistant strain relative to MIC H37Rv: approximately 62.5 fold
